Values from PubChem BioAssay AID624099 (ICCB-Longwood, 2012).

- Purpose: 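Knock-downs relieving repression by E2 of an HPV18 LCR luciferase reporter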 (primary screen)
- System: human C33A cervical carcinoma cells (HPV-negative) stably expressing BPV1 E2 and an HPV18 LCR luciferase reporter
- Knock-down reagent: siRNA pool against human genes, 40 nM
- Time to read-out: 72 h
- Measured: 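HPV18 LCR reporter light per well, converted to plate-wise z-scores that exclude control wells, and averaged over triplicate plates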
- Reading the numbers: mean z-score and z-score: higher = stronger reporter signal, weaker E2 silencing
- Active means: 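Hit if mean z-score reaches 2 and two or more of three replicate z-scores also reach 2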
Here is a random part of about 21,000 reagents. In the full data, 497 (2.4%) were called active. 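Higher z means weaker E2 silencing; only reporter increases were scored, and knock-downs that hurt cell survival may mask genuine repressor factors.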

SMC6
- mean z-score: -0.17
- z-score, replicate A: -0.81
- z-score, replicate B: 0.24
- z-score, replicate C: 0.07
- Outcome: inactive

TRIM35
- mean z-score: 0.15
- z-score, replicate A: 0.07
- z-score, replicate B: 0.57
- z-score, replicate C: -0.2
- Outcome: inactive

MAP3K13
- mean z-score: 0.09
- z-score, replicate A: 0.18
- z-score, replicate B: 0.12
- z-score, replicate C: -0.04
- Outcome: inactive

KRT10-AS1
- mean z-score: 0.05
- z-score, replicate A: -0.77
- z-score, replicate B: 0.21
- z-score, replicate C: 0.7
- Outcome: inactive

TSPOAP1
- mean z-score: -0.01
- z-score, replicate A: 0.03
- z-score, replicate B: -0.06
- z-score, replicate C: -0.01
- Outcome: inactive

FEV
- mean z-score: 1.53
- z-score, replicate A: 1.39
- z-score, replicate B: 1.56
- z-score, replicate C: 1.64
- Outcome: inactive

CLDN16
- mean z-score: -0.69
- z-score, replicate A: -0.89
- z-score, replicate B: -0.64
- z-score, replicate C: -0.53
- Outcome: inactive

ARL14
- mean z-score: -4.88
- z-score, replicate A: -5.05
- z-score, replicate B: -4.86
- z-score, replicate C: -4.73
- Outcome: inactive

ZNF317
- mean z-score: -1.21
- z-score, replicate A: -1.08
- z-score, replicate B: -1.09
- z-score, replicate C: -1.46
- Outcome: inactive

ZNF512
- mean z-score: -0.04
- z-score, replicate A: 0.21
- z-score, replicate B: 0.05
- z-score, replicate C: -0.37
- Outcome: inactive

RIIAD1
- mean z-score: 0.34
- z-score, replicate A: 0.33
- z-score, replicate B: 0.28
- z-score, replicate C: 0.39
- Outcome: inactive

TMEM234
- mean z-score: -0.83
- z-score, replicate A: -0.81
- z-score, replicate B: -0.78
- z-score, replicate C: -0.9
- Outcome: inactive

LOC338829 (retired record)
- mean z-score: 0.37
- z-score, replicate A: 0.37
- z-score, replicate B: 0.48
- z-score, replicate C: 0.28
- Outcome: inactive

SMIM21
- mean z-score: -0.39
- z-score, replicate A: -0.58
- z-score, replicate B: 0.04
- z-score, replicate C: -0.64
- Outcome: inactive

2 entries already listed, ordered by “mean z-score”, high to low:
MAP3K13
- mean z-score: 0.09
- z-score, replicate A: 0.18
- z-score, replicate B: 0.12
- z-score, replicate C: -0.04
- Outcome: inactive

KRT10-AS1
- mean z-score: 0.05
- z-score, replicate A: -0.77
- z-score, replicate B: 0.21
- z-score, replicate C: 0.7
- Outcome: inactive

Next reagents:
CTSF
- mean z-score: -0.79
- z-score, replicate A: -0.67
- z-score, replicate B: -0.93
- z-score, replicate C: -0.78
- Outcome: inactive

ADAT2
- mean z-score: 0.24
- z-score, replicate A: 0.01
- z-score, replicate B: 0.12
- z-score, replicate C: 0.61
- Outcome: inactive

FBXO9
- mean z-score: -0.27
- z-score, replicate A: -0.28
- z-score, replicate B: -0.3
- z-score, replicate C: -0.23
- Outcome: inactive

BRINP2
- mean z-score: -0.04
- z-score, replicate A: -0.51
- z-score, replicate B: 0.24
- z-score, replicate C: 0.16
- Outcome: inactive

CDPF1
- mean z-score: -1.23
- z-score, replicate A: -0.84
- z-score, replicate B: -1.57
- z-score, replicate C: -1.29
- Outcome: inactive

KRTAP4-9
- mean z-score: -0.66
- z-score, replicate A: -0.45
- z-score, replicate B: -0.91
- z-score, replicate C: -0.63
- Outcome: inactive

ITGA3
- mean z-score: 2.42
- z-score, replicate A: 2.36
- z-score, replicate B: 2.37
- z-score, replicate C: 2.53
- Outcome: active
